Measurements reported in PubChem BioAssay AID1259414 (Drosophila RNAi Screening Center, 2018)
In all, the deposit lists about 24,000 reagents; this is a random part of those that have a named target and a result. In the full data, about 1,210 (5%) are marked active. 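Inactive calls also include excluded dsRNAs with several or no targets, genes unexpressed in JW18, and well A1, regardless of score.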 Names joined by + are all predicted targets of the reagent. Reagent sequences are not shown.

Purpose: 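Genome-wide screen for host control of endosymbiont load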 (primary screen)
Cells: Drosophila JW18 cells infected with Wolbachia
Reagents: long dsRNA against Drosophila genes, 0.25 µg dsRNA per well of a 384-well plate
Time to read-out: 5 days
Conditions: cells persistently infected with Wolbachia before knock-down; no added drug
Measurement: 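Automated imaging of bacterial rRNA staining divided by host cell count, reported as plate-normalised robust z-score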
Reading the numbers: Wolbachia per cell robust z: higher = more Wolbachia per host cell than the plate typical
Call rule: 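Hit when robust z is 1.5 or more, or -1.5 or less, in at least two of three replicates; excludes dsRNAs with several or no targets, genes not expressed in JW18 and well A1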

target gene	dsRNA	Wolbachia per cell robust z, rep 1	Wolbachia per cell robust z, rep 2	Wolbachia per cell robust z, rep 3	call
CG16762	DRSC08493	0.368	-4.47	-0.531	inactive
CG17598	DRSC20636	-5.68	0.623	0.138	inactive
CG7565	DRSC10881	0.11	-0.141	-1.42	inactive
Sdic4 + sw + Sdic1 + 2 more	DRSC20696	0.207	0.499	0.642	inactive
Sdic4 + sw + Sdic1 + 2 more	DRSC29154	-0.963	0.575	0.504	inactive
CG10104	DRSC05964	-2.96	1.5	-1.67	inactive
CG8160	DRSC07086	-4.86	-3.43	-3.58	inactive
CG8160	DRSC21434	0.0748	1.34	0.847	inactive
CG8160	DRSC24130	0.632	-0.0688	0.832	inactive
CG42360	DRSC04224	0.0596	0.31	-0.00931	inactive
CG14480	DRSC06452	-1.66	0.395	-1.78	active
Tsp47F	DRSC07325	0.695	0.414	0.845	inactive
Ddr	DRSC02150	-0.644	0.81	0.0862	inactive
Ddr	DRSC03229	-0.1	-1.41	-1.09	inactive
Ddr	DRSC03230	0.685	0.46	-2.79	inactive
Ddr	DRSC22818	0.765	0.327	-0.177	inactive
CG12491 + CG34105	DRSC04008	0.788	-0.0489	0.113	inactive
CG3704	DRSC18174	-0.241	-1.24	-1.3	inactive
CG3704	DRSC18645	-0.406	-0.679	-0.756	inactive
CG3704	DRSC28218	-0.269	-0.561	-0.0343	inactive
Asap	DRSC06493	0.072	0.943	0.631	inactive
Asap	DRSC06830	0.791	-6.31	1.36	inactive
Spt3	DRSC15465	-0.323	0.0239	0.133	inactive
Spt3	DRSC25502	1.36	0.382	2.09	inactive
lncRNA:CR40465	DRSC37851	-0.0773	0.464	0.533	inactive
CG32391	DRSC08865	0.716	1.33	0.964	inactive
Mes2	DRSC11593	-0.233	2.38	-2.65	inactive
Mes2	DRSC11632	0.938	1.62	1.25	inactive
Pp1-13C	DRSC20269	1.93	2.08	2.37	inactive
Pp1-13C	DRSC23305	-1.13	0.000861	-0.208	inactive
Pp1-13C	DRSC27492	0.217	0.212	0.884	inactive
CG12024	DRSC08229	-1.5	-0.745	-1.71	active
CG12024	DRSC27391	0.175	-0.75	-0.207	inactive
CG12024	DRSC38159	-1.8	-0.464	-0.15	inactive
Vha68-3	DRSC02809	-0.276	-3.36	-0.185	inactive
Vha68-3	DRSC25742	-8.88	-0.574	-0.242	inactive
CG8176	DRSC16394	0.386	0.279	-3.94	inactive
oys	DRSC05203	1.11	-0.0186	-8.05	inactive
oys	DRSC06751	0.284	0.0211	0.649	inactive
oys	DRSC26939	-0.566	1.31	-0.399	inactive
meru	DRSC09400	-1.21	0.000616	-0.281	inactive
meru	DRSC10215	0.544	0.379	0.192	inactive
Cmtr1	DRSC18400	0.255	0.945	1.18	inactive
Cmtr1	DRSC27812	0.854	1.61	-1.46	inactive
CG6435	DRSC06987	-0.414	-4.75	0.494	inactive
CG32260	DRSC08084	0.0997	-0.0416	-0.116	inactive
CG32260	DRSC24480	0.218	-1.4	-0.409	inactive
Ir7f	DRSC18012	-0.428	0.623	0.435	inactive
Fur2	DRSC19817	-0.0232	-1.96	0.755	inactive
Impbeta11 + asRNA:CR43429	DRSC07525	0.266	-0.0849	-1.61	inactive
CG12998	DRSC19518	-0.0513	-2.07	-2.88	inactive
Vps11	DRSC11909	0.51	0.171	1.09	inactive
Vps11	DRSC21579	-0.801	-0.734	0.805	inactive
CG31407	DRSC12761	0.63	-0.508	-2.18	inactive
CG16852	DRSC01876	-0.478	-1	-0.666	inactive
CG3107	DRSC04888	-1.01	0.578	0.0776	inactive
CG6966	DRSC16156	0.294	0.969	-0.849	inactive
CG6966	DRSC24518	1.39	2.05	-0.4	inactive
Cpr23B	DRSC23504	0.781	1.93	-0.31	inactive
CG15484	DRSC02494	-0.103	0.525	0.0222	inactive
CG15484	DRSC22836	-0.317	-0.379	-2.54	inactive
luna	DRSC05253	0.613	1.83	-0.582	inactive
luna	DRSC24992	0.154	-0.875	-2.21	inactive
Tsp42Eg	DRSC06112	-0.576	0.558	-0.262	inactive
CG34007	DRSC38908	0.0084	-0.842	-0.324	inactive
PIG-C	DRSC08241	0.925	-4.48	0.342	inactive
Mlc2	DRSC16741	0.02	-3.41	-1.75	active
Mlc2	DRSC28878	-0.625	-0.497	-0.7	inactive
